Results of unrelated studies side by side (data: NIAID ChemDB).

Shared fields: target-level tests; agent: HIV-1; target: Reverse transcriptase

Two numbers with a dash give a range or band. Blank or dashed fields: not listed here. ICn is the concentration giving n% inhibition. Lines come from different laboratories, so protocols vary.

CCOCn1c(Sc2ccccc2)c(C)c(=O)[nH]c1=O ; endpoint: IC50 ; method: RT activity ; value: 4.1 µM
CC(C)OC(=O)N1c2ccc([N+](=O)[O-])cc2C=CC1C#N ; endpoint: IC50 ; method: nucleotide incorporation ; value: 10.2 µM
CC(CNC(=S)Nc1nccs1)c1ccccc1 ; endpoint: IC50 ; method: nucleotide incorporation ; value: >10 µM
COc1cc(-c2ccc(N=Nc3ccc4c(S(=O)(=O)O)cc(S(=O)(=O)O)c(N)c4c3O)c(OC)c2)ccc1N=Nc1ccc2c(S(=O)(=O)O)cc(S(=O)(=O)O)c(N)c2c1O ; endpoint: IC50 ; method: RT activity ; strain: RF ; value: 13 µM
CCNc1cccnc1N1CCN(Cc2cc(C)c(O)c(C)c2)CC1 ; endpoint: IC50 ; method: nucleotide incorporation ; value: <100 µM
O=C1O[C@H]2[C@@H]3OC(=O)c4cc(O)c(O)c(O)c4-c4c(cc(O)c(O)c4O)C(=O)OC[C@H]2O[C@@H](OC(=O)c2cc(O)c(O)c(O)c2)[C@@H]3OC(=O)c2cc(O)c(O)c3c2[C@@H]2C1=CC(=O)[C@](O)(O3)C2(O)O ; endpoint: IC50 ; method: nucleotide incorporation ; value: >20 µg/mL
Nc1nc2c(ncn2[C@H]2CC[C@@H](COP(=O)(O)OP(=O)(O)OP(=O)(O)O)O2)c(=O)[nH]1 ; endpoint: IC50 ; method: nucleotide incorporation / radiometric ; strain: WT ; value: 0.12 µM
Cc1cc(C)c2c(c1)N(CC(C)C)C(=O)c1ccnnc1O2 ; endpoint: IC50 ; method: ELISA ; value: <330 µM
S=C(NCCc1ccccn1)Nc1cnccn1 ; endpoint: IC50 ; value: 33–330 µM
CC(Cc1ccccc1)NC(=S)Nc1nccs1 ; endpoint: IC50 ; method: nucleotide incorporation ; value: 0.45 µM
Cc1ccc2c(c1)N(C(C)C)C(=O)c1cc(Cl)nnc1O2 ; endpoint: IC50 ; method: ELISA ; value: <330 µM
C[C@@H]1Cc2c(-c3cc(-c4ccc5ccccc5c4O)c(O)c4ccccc34)c(O)cc(O)c2[C@@H](C)N1 ; endpoint: IC50 ; method: nucleotide incorporation ; value: 1000 µM
CCN1C(=O)c2ccnnc2Oc2ccc(C)cc21 ; endpoint: IC50 ; method: ELISA ; value: <330 µM
CCNc1cccnc1N1CCN(CCCc2cc(C)c(O)c(C)c2)CC1 ; endpoint: IC50 ; method: nucleotide incorporation ; value: >100 µM
Nc1cc2c(cc1F)CN(c1nn3c(C4CC4)nnc3c3ccccc13)CC2 ; endpoint: IC50 ; method: RT activity / fluorescence ; strain: KER2008 ; value: 0.46 µM
CC(C)Nc1cccnc1N(C)CC(C)(C)CN(C)C(=O)c1cc2ccccc2[nH]1 ; endpoint: IC50 ; method: nucleotide incorporation ; value: >100 µM
Cc1ccc2c(c1)N(CC(C)C)C(=O)c1ccnnc1O2 ; endpoint: IC50 ; method: ELISA ; value: <330 µM
N#CC1C=Cc2ccccc2N1C(=O)Oc1ccc(Cl)cc1 ; endpoint: IC50 ; method: nucleotide incorporation ; value: >50 µM
CCCN1C(=O)c2ccnnc2Oc2ccc(C)cc21 ; endpoint: IC50 ; method: ELISA ; value: <330 µM
COc1ccc2c(c1)CCN(c1nn3c(C4CC4)nnc3c3ccccc13)C2 ; endpoint: IC90 ; method: RT activity / fluorescence ; strain: IIIB ; value: 3.83 µM
COc1ccc(OC)c(C/C=C(\C)CC/C=C(\C)CC/C=C(\C)CC/C=C(\C)CC/C=C(\C)CCC=C(C)C)c1 ; endpoint: IC90 ; method: nucleotide incorporation ; value: 64.5 µM
COc1ccc2c(c1)C=CC(C#N)N2C(=O)OC(C)C ; mutations: RT-P236L ; endpoint: IC50 ; method: nucleotide incorporation ; value: 14.6 µM
CCOC(=O)CN1C(=O)c2ccnnc2Oc2ccc(C)cc21 ; endpoint: IC50 ; method: ELISA ; value: ~330 µM
COc1c2ccoc2c(S(=O)(=O)OC2CCCC2)c2oc(C)cc(=O)c12 ; endpoint: IC50 ; method: RT activity / radiometric ; value: 0.0000091 µM
c1csc(-c2nnc3c4ccccc4c(N4CCc5ccccc5C4)nn23)c1 ; endpoint: IC50 ; method: RT activity / fluorescence ; strain: IIIB ; value: >100 µM
Oc1cc(O)c2c(c1)O[C@H](c1ccc(O)c(O)c1)[C@H](O)C2c1c(O)cc(O)c2c1O[C@@]1(c3ccc(O)c(O)c3)Oc3cc(O)c4c(c3[C@@H]2[C@H]1O)O[C@H](c1ccc(O)c(O)c1)[C@H](O)C4 ; endpoint: IC50 ; method: nucleotide incorporation ; value: >20 µg/mL
Cc1cc(C)cc(S(=O)(=O)c2c(C(=O)NCC(N)=O)[nH]c3ccc(Cl)c(F)c23)c1 ; mutations: L100I ; endpoint: Ki ; method: RT activity / nucleotide incorporation ; value: 0.55 µM
CCOC(=O)N1c2cc3c(cc2C=CC1C#N)OCO3 ; endpoint: IC50 ; method: nucleotide incorporation ; value: >50 µM
O=C1OC2C(O)OC(CO)C(O)C2OC(=O)c2cc(O)c(O)c(O)c2-c2c1cc(O)c(O)c2O ; endpoint: IC50 ; method: nucleotide incorporation ; value: >20 µg/mL
N#CC1C=Cc2ccccc2N1C(=O)c1ccc(Cl)cc1 ; endpoint: IC50 ; method: nucleotide incorporation ; value: 5.5 µM
COc1c(-c2cc(C)n(-c3ccccc3)n2)c(O)c(S(=O)(=O)Oc2ccc([N+](=O)[O-])cc2)c2occc12 ; endpoint: IC50 ; method: RT activity / radiometric ; value: 0.0000034 µM
CC(C)Nc1cccnc1N(C)CCCN(C)C(=O)c1cc2ccccc2[nH]1 ; endpoint: IC50 ; method: nucleotide incorporation ; value: <100 µM
S=C(NCCc1ccccn1)Nc1ncccn1 ; endpoint: IC50 ; value: 33–330 µM
CCOC(=O)N1c2ccc([N+](=O)[O-])cc2C=CC1C#N ; endpoint: IC50 ; method: nucleotide incorporation ; value: >50 µM
Cc1cc(C(=O)O)ccc1N=Nc1c(S(=O)(=O)O)cc2cc(NC(=O)Nc3ccc4c(O)c(N=Nc5ccc(C(=O)O)cc5C)c(S(=O)(=O)O)cc4c3)ccc2c1O ; endpoint: IC50 ; method: nucleotide incorporation ; value: 0.042 µM
COc1c(C(=O)/C=C(/C)Nc2ccc([N+](=O)[O-])cc2)c(O)c(S(=O)(=O)Oc2ccc(F)cc2)c2occc12 ; endpoint: IC50 ; method: RT activity / radiometric ; value: 0.0000065 µM
Oc1cc(O)c2c(c1)O[C@@]1(c3ccc(O)c(O)c3)Oc3cc(O)c4c(c3[C@@H]2[C@H]1O)O[C@H](c1ccc(O)c(O)c1)[C@H](O)C4 ; endpoint: IC50 ; method: nucleotide incorporation ; value: >20 µg/mL
CC(C)c1c(Cc2ccccc2)n(COCc2ccc(/C(O)=C/C(=O)C(=O)O)cc2)c(=O)[nH]c1=O ; endpoint: IC50 ; method: nucleotide incorporation ; value: 0.057 µM
COc1c(-c2cc(C)n(-c3ccccc3)n2)c(O)c(S(=O)(=O)OC2CCCC2)c2occc12 ; endpoint: IC50 ; method: RT activity / radiometric ; value: 0.0000044 µM
CC(C)Nc1cccnc1N1CCN(C(=O)c2cc3cc(OCc4ccccc4)ccc3[nH]2)CC1 ; endpoint: IC50 ; method: nucleotide incorporation ; value: <100 µM
Nc1nc2c(ncn2[C@H]2CC[C@@H](COP(=O)(O)OP(=O)(O)OP(=O)(O)OP(=O)(O)OC[C@@H]3CC[C@H](n4cnc5c(=O)[nH]c(N)nc54)O3)O2)c(=O)[nH]1 ; endpoint: IC50 ; method: nucleotide incorporation / radiometric ; strain: WT ; value: 1.8 µM
Cc1c(Sc2ccccc2)n(COCCOP(=O)(O)OP(=O)(O)OP(=O)(O)O)c(=O)[nH]c1=O ; endpoint: IC50 ; method: RT activity ; value: >500 µM
CC(C)COC(=O)N1c2ccc([N+](=O)[O-])cc2C=CC1C#N ; endpoint: IC50 ; method: nucleotide incorporation ; value: 33.8 µM
Nc1ccn([C@H]2CC[C@@H](COP(=O)(O)OP(=O)(O)OP(=O)(O)OP(=O)(O)OC[C@@H]3CC[C@H](n4ccc(N)nc4=O)O3)O2)c(=O)n1 ; endpoint: IC50 ; method: nucleotide incorporation / radiometric ; strain: WT ; value: 2.1 µM
Cc1nnc2c3ccccc3c(N3CCc4ncccc4C3)nn12 ; endpoint: IC50 ; method: RT activity / fluorescence ; strain: KER2008 ; value: 1.08 µM
O=C(O[C@@H]1O[C@H](CO)[C@@H](O)[C@H](O)[C@H]1O)c1cc(O)c(O)c(O)c1 ; endpoint: IC50 ; method: nucleotide incorporation ; value: >20 µg/mL
COc1ccc2c(c1)C=CC(C#N)N2C(=O)c1ccco1 ; endpoint: IC50 ; method: nucleotide incorporation ; value: >50 µM
Cc1cc(C)cc(S(=O)(=O)c2c(C(=O)NCCOc3ccccc3)[nH]c3ccc(Cl)c(F)c23)c1 ; mutations: WT ; endpoint: Ki ; method: RT activity / nucleotide incorporation ; value: 0.003 µM
Nc1nc2c(ncn2[C@H]2CC[C@@H](COP(=O)(O)OP(=O)(O)NP(=O)(O)OP(=O)(O)OC[C@H]3O[C@@H](n4cnc5c(N)ncnc54)[C@H](O)[C@@H]3O)O2)c(=O)[nH]1 ; endpoint: IC50 ; method: nucleotide incorporation / radiometric ; strain: WT ; value: >50 µM

The last 4 rows once more:

SMILES	mutations	endpoint	method	strain	value
O=C(O[C@@H]1O[C@H](CO)[C@@H](O)[C@H](O)[C@H]1O)c1cc(O)c(O)c(O)c1	-	IC50	nucleotide incorporation	-	>20 µg/mL
COc1ccc2c(c1)C=CC(C#N)N2C(=O)c1ccco1	-	IC50	nucleotide incorporation	-	>50 µM
Cc1cc(C)cc(S(=O)(=O)c2c(C(=O)NCCOc3ccccc3)[nH]c3ccc(Cl)c(F)c23)c1	WT	Ki	RT activity / nucleotide incorporation	-	0.003 µM
Nc1nc2c(ncn2[C@H]2CC[C@@H](COP(=O)(O)OP(=O)(O)NP(=O)(O)OP(=O)(O)OC[C@H]3O[C@@H](n4cnc5c(N)ncnc54)[C@H](O)[C@@H]3O)O2)c(=O)[nH]1	-	IC50	nucleotide incorporation / radiometric	WT	>50 µM